HELM strings list residues between dots; [ac] is acetyl, [am] amide, other brackets name non-standard units.
Assay: general procedure: Fmoc solid-phase peptide synthesis; TentaGel S RAM resin, 0.23 mmol/g; DIC / Oxyma Pure
Details: whole synthesis, UPLC-MS, scale of the general procedure 0.1 mmol

Question: With “Ac-NH-Asp-Lys-[S5-Asn-His-Glu-S5]-Glu-Asp-CO-NH2” as the substance, how does the “final LC-MS purity” value read?
Answer: Its value is 100%.

Question: For “PEPTIDE1{[ac].D.K.F.N.H.E.A.E.D.[am]}$$$$V2.0”, which “final LC-MS purity” value is on record?
Answer: Its value is 99%.

Question: With “PEPTIDE1{[ac].D.K.K.N.H.E.D.E.D.[am]}$PEPTIDE1,PEPTIDE1,4:R3-8:R3$$$V2.0” as the substance, how does the “final LC-MS purity” value read?
Answer: The value was 100%.

Question: For “PEPTIDE1{[ac].D.K.[S5-Z].N.H.E.[S5-half].E.D.[am]}$PEPTIDE1,PEPTIDE1,4:R3-8:R3$$$V2.0”, which “final LC-MS purity” value is on record?
Answer: Its value is 100%.

Question: For “PEPTIDE1{[ac].H.E.A.E.D.L.F.Y.Q.[am]}$$$$V2.0”, which “final LC-MS purity” value is on record?
Answer: Its value is 100%.

Question: Which “final LC-MS purity” value does the source give for “PEPTIDE1{[ac].H.E.K.E.D.L.D.Y.Q.[am]}$PEPTIDE1,PEPTIDE1,4:R3-8:R3$$$V2.0” here?
Answer: Its value is 100%.

Question: With “PEPTIDE1{[ac].H.E.[S5-E].E.D.L.[S5-half].Y.Q.[am]}$PEPTIDE1,PEPTIDE1,4:R3-8:R3$$$V2.0” as the substance, how does the “final LC-MS purity” value read?
Answer: The value was 96%.

Same assay, conditions: whole synthesis, UPLC-MS, scale of the general procedure 0.1 mmol, bicyclic

Question: With “Ac-NH-Asp-Lys-[Lys-Asn-His-Glu-Asp]-Glu-Asp-[Lys-Phe-Tyr-Gln-Asp]-CO-NH2” as the substance, how does the “final LC-MS purity” value read?
Answer: The value was 95%.

Same assay, conditions: whole synthesis, UPLC-MS, scale of the general procedure 0.1 mmol, cyclic

Question: For “Ac-NH-Asp-Lys-[Dap-Asn-His-Glu-Dap]-Glu-Asp-CO-NH2”, which “final LC-MS purity” value is on record?
Answer: The value was 100%.

Question: With “Ac-NH-Asp-Lys-[Lys-Asn-His-Glu-dPra]-Glu-Asp-CO-NH2” as the substance, how does the “final LC-MS purity” value read?
Answer: The value was 100%.

Question: For “Ac-NH-Asp-Lys-[dPra-Asn-His-Glu-Lys]-Glu-Asp-CO-NH2”, which “final LC-MS purity” value is on record?
Answer: Its value is 98%.

Question: For “Ac-NH-His-Glu-[Dap-Glu-Asp-Leu-Dap]-Tyr-Gln-CO-NH2”, which “final LC-MS purity” value is on record?
Answer: The value was 98%.

Question: With “Ac-NH-His-Glu-[Lys-Glu-Asp-Leu-dPra]-Tyr-Gln-CO-NH2” as the substance, how does the “final LC-MS purity” value read?
Answer: Its value is 95%.

Question: Which “final LC-MS purity” value does the source give for “Ac-NH-His-Glu-[dPra-Glu-Asp-Leu-Lys]-Tyr-Gln-CO-NH2” here?
Answer: Its value is 100%.

Same assay, conditions: whole synthesis, UPLC-MS, scale of the general procedure 0.1 mmol, side-chain lactam ring

Question: Which “final LC-MS purity” value does the source give for “Ac-NH-Asp-Lys-[Asp-Asn-His-Glu-Lys]-Glu-Asp-CO-NH2” here?
Answer: The value was 95%.

Question: For “Ac-NH-Asp-Lys-[Lys-Asn-His-Glu-Glu]-Glu-Asp-CO-NH2”, which “final LC-MS purity” value is on record?
Answer: The value was 100%.

Question: Which “final LC-MS purity” value does the source give for “Ac-NH-His-Glu-[Asp-Glu-Asp-Leu-Lys]-Tyr-Gln-CO-NH2” here?
Answer: The value was 98%.

Question: For “Ac-NH-His-Glu-[Lys-Glu-Asp-Leu-Glu]-Tyr-Gln-CO-NH2”, which “final LC-MS purity” value is on record?
Answer: The value was 100%.

Question: For “Ac-NH-Pro-Asp-Lys-[Lys-Asn-His-Glu-Asp]-Glu-Asp-CO-NH2”, which “final LC-MS purity” value is on record?
Answer: Its value is 100%.

Question: For “Ac-NH-Pro-His-Glu-[Lys-Glu-Asp-Leu-Asp]-Tyr-Gln-CO-NH2”, which “final LC-MS purity” value is on record?
Answer: Its value is 100%.

From PMC10778704 (International Journal of Molecular Sciences, 2023)
